In this assay the test system is SARS-CoV-2. The experiment in a line: Inhibition of cell viability relative to arbidol control (inhibition index > 1 indicates higher activity) measured by fluorescence (OD590nm) in Vero E6 cells infected with SARS-CoV-2 (strain BavPat1) at MOI 0.002 after 72hrs. It counts as functional. Particulars: Chlorocebus sabaeus; Vero C1008.

The record followed here is ChEMBL document CHEMBL4303097 (2020).

In turn, `NC(=O)Nc1ccc([As](=O)(O)O)cc1` displayed an Inhibition index of 0.0461.
